The text below walks through data of PubChem BioAssay AID624173 (National Center for Advancing Translational Sciences (NCATS), 2012).

The list shows a part of the results, in another mix than the full data. Calls of active or inactive are those of the source. Calls follow the shape of the dose curve; as a rule, active = well fitted inhibition curve with a large enough effect; inconclusive = small, poorly fitted or top-dose-only effect; inactive = flat fitted curve, though single readings scatter.
% is scaled to controls: 0 for no effect and ±100 for the full control effect.

In this test the target is pyruvate kinase (Trypanosoma brucei) (UniProt Q57TT1). In words: qHTS of Trypanosoma Brucei Inhibitors. Also: nearly all actives have a fitted effect of over 50% in size. The note with it: TbPYK enzyme, Kinase-Glo Plus ATP luminescence, 45 min; at 76.8 µM (top of the series).
For the molecule `COc1ccc(OP(C)(=O)Nc2ccc(SC(F)(F)F)cc2)cc1` (stereo unspecified), the activity, negative = inhibition is inactive: 2.71%.
